Measurements reported in PubChem BioAssay AID602481 (Broad Institute, 2012).
This is a selection; strong and weak results do not stand in their true shares. Active and inactive are the calls of the source. Cut-off read from the data, not from the text of the source: active = inhibition above about 40%; inconclusive = no clear call, values can overlap the other calls; inactive = below that.

Each molecule was assayed on 7,8-diaminopelargonic acid synthase BioA (Mycobacterium tuberculosis) (assay: M. tuberculosis BioA enzyme inhibitors, primary screen, biochemical, plate reader, single point, HTS (AID 602481)). Settings: purified M. tuberculosis BioA enzyme, at 9.99 µM, stronger effect = higher value.

Compound | inhibition
O=[N+]([O-])c1cccc(NC2=NCC(CBr)S2)c1 (configuration not stated) | inactive: 0.425%
O=P1(N(CCCl)CCCl)OCCCS1 (configuration not stated) | inactive: -2.34%
O=C(Nc1cc([As](=O)(O)O)ccc1O)c1ccccc1 | inactive: -1.72%
C[N+]1=C2C=CC=CC=C2SC12C([N+](=O)[O-])=CC([N+](=O)[O-])=C[C-]2[N+](=O)[O-] (configuration not stated) | inactive: 1.26%
Nc1ccc([As](=O)(O)c2ccc(N)cc2)cc1 | inactive: -1.76%
c1cc(-c2nn[nH]n2)ccc1-c1nn[nH]n1 | inactive: 3.09%
CC1CCN(C(=O)Oc2c(Cl)cc(Cl)c3cccnc23)CC1 | inactive: 2.03%
CC(C)c1nc(Nc2ccccc2)n(P(=O)(N(C)C)N(C)C)n1 | inactive: 0.151%
COc1ccc(C2=NCC(CBr)S2)cc1 (configuration not stated) | inactive: -0.181%
CCc1nc2c(n1)c1c(non1O)c1c2no[n+]1[O-] | inactive: -0.195%
CC(=O)N1C2C3N(C(C)=O)C1C1N(C(C)=O)C(C(N1C(C)=O)N3C(C)=O)N2C(C)=O | inactive: -1.52%
O=[N+]([O-])c1cccc2n[nH]nc12 | inactive: -0.0945%
O=C(NC(Sc1ccncn1)C(Cl)(Cl)Cl)c1ccccc1 (configuration not stated) | inactive: -0.277%
Oc1ccccc1CNc1ccccn1 | inactive: 0.491%
CC(C)CC(=O)NC(Sc1ccc(Cl)cc1)C(Cl)(Cl)Cl (configuration not stated) | inactive: 0.077%
Cc1ccc(N/C(=N/P(=O)(N2CCOCC2)N2CCOCC2)N2CCOCC2)cc1 | inactive: -1.5%
CN(C(=O)Cc1ccc(Cl)c(Cl)c1)[C@H]1CCCC[C@H]1N1CCCC1 | inactive: -1.17%
Clc1ccc(Cl)c(NC2=NCC(CBr)S2)c1 (configuration not stated) | inactive: -0.408%
CN1CCCC(OC(=O)C(c2ccccc2)c2ccccc2)C1 (configuration not stated) | inactive: -0.531%
Cc1ccc(OP(=O)(Nc2nccs2)Oc2ccc(C)cc2)cc1 | inactive: 0.253%
Nc1cccc2ccc([As](=O)(O)O)cc12 | inactive: -1.25%
CN(C)P(=O)(N(C)C)n1c(Nc2ccccc2)nnc1-c1ccccc1 | inactive: -0.253%
CCCC1OP(N)(=O)OCC1CC (configuration not stated) | inactive: -1.16%
O=C(O)c1ccccc1[As](=O)(O)O | inactive: 0.298%
CC(=O)Nc1ccc([As](=O)(O)O)cc1 | inactive: -1.79%
CN(C(=O)Cc1ccc(Cl)c(Cl)c1)[C@H]1CCCC[C@@H]1N1CCCC1 | inactive: -0.746%
CCOP(=O)(Nc1ccccc1)OCC | inactive: -0.51%
